Measured values from several laboratories, pooled; numbers as filed in NIAID ChemDB.

Common to all: host cell toxicity; cells: PBMC; read-out: CC50

An empty or dashed field is not shown.

SMILES,method,value
OCCNc1nc(-c2cccs2)cc(-c2cc3ccccc3s2)n1,,100 µM
COC(=O)C(C)(C)NP(=O)(OC[C@@H]1OC[C@H](n2cc(C)c(=O)[nH]c2=O)O1)Oc1ccccc1,MTT,>100 µM
COc1cc2ccnc3c2c(c1OCCCCCCCCCOc1c(OC)cc2ccnc4c2c1N(C)C=C4)N(C)C=C3,,1.1 µM
CCOC(=O)[C@H](C)NP(=O)(OCC(F)(F)C(F)(F)Cn1cnc2c(N)ncnc21)Oc1ccccc1,,>100 µM
COc1cc2ccnc3c2c(c1OC)N(CCC(C)C)C=C3,,2.6 µM
FC(F)(F)c1ccc(NC(=S)NCCC2=CCCCC2)nc1,,>100 µM
CN1CCN(CCSc2nc(-c3cc4ccccc4s3)c3ccccc3n2)CC1,,10 µM
O=C(O)c1cc(O)c(O)c(O)c1,MTT,825 µM
CN(C)CCNc1nc(-c2ccoc2)cc(-c2cc3ccccc3s2)n1,,10 µM
CCCCCCCCCCCCCCCCOCCCOP(=O)(N[C@@H](C)C(=O)OC)OC[C@@H]1OC[C@H](n2cc(C)c(=O)[nH]c2=O)O1,MTT,19.7 µM
Cc1cn(CC(F)(F)C(F)(F)CO)c(=O)[nH]c1=O,,>100 µM
NCC(NC(=O)c1ccc(-c2cc(F)c(Cl)c(F)c2)[nH]1)c1nc(CO)cs1,MTT,7.6 µM
Nc1nc2c(ncn2[C@@H]2C[C@H](CO)C=C2F)c(=O)[nH]1,MTT,>100 µM
COc1ccnc2[nH]cc(C(=O)C(=O)N3CCN(C(=O)c4ccccc4)C[C@H]3C)c12,MTT,0.04 µM
O=c1[nH]c(=O)n([C@@H]2O[C@@H](CO)CC2(F)F)cc1F,,>100 µM
O=C(NCCc1ccc2c(n1)NCC(=O)O2)Nc1cccc(F)c1,,50 µM
Nc1ncnc2c1ncn2[C@H]1C[C@@H](CO)C=C1F,MTT,>100 µM
COC(=O)[C@H](C)NP(=O)(OC[C@@H]1OC[C@H](n2cc(C)c(=O)[nH]c2=O)O1)Oc1ccccc1,MTT,>100 µM
CCCCCCCOC(=O)c1cc(O)c(O)c(O)c1,MTT,1718 µM
O=C(O)c1ccc2c(c1)nc(Nc1cccc(C(F)(F)F)c1)c1nc(NC3CC3)ncc12,,>100 µM
C=CCc1ccccc1OP(=O)(N[C@@H](C)C(=O)OC)OC[C@@H]1OC[C@H](n2cc(C)c(=O)[nH]c2=O)O1,MTT,>100 µM
Cc1ccc(-c2ccc3c(c2)C=C(C(=O)Nc2ccc(C[N+](C)(C)C4CCOCC4)cc2)CCC3)cc1,,>100 µM
CCCCCCOC(=O)c1cc(O)c(O)c(O)c1,MTT,1580 µM
O=c1ccn([C@H]2C=C[C@@H](CO)O2)c(=O)n1CCCCCCN1CCN(CCNC(=S)Nc2ccc(Br)cn2)CC1,MTT,98 µM
O=c1[nH]c(=O)n([C@H]2O[C@@H](CO)CC2(F)F)cc1F,,>100 µM
Nc1nc2c(ncn2[C@H]2C[C@@H](CO)C=C2F)c(=O)[nH]1,MTT,>100 µM
CCOC(=O)[C@H](C)NP(=O)(OCC(F)(F)C(F)(F)Cn1cnc2c(=O)[nH]c(N)nc21)Oc1ccccc1,,>100 µM
O=c1[nH]cnc2c1ncn2[C@H]1C[C@@H](CO)C=C1F,MTT,>100 µM
Cc1cn([C@H]2C=C[C@@H](CO)O2)c(=O)[nH]c1=O,MTT,42 µM
COc1ccc(Cl)cc1NC(=O)NCCc1ccc2c(n1)NCCC2,,3 µM
O=c1[nH]cc(F)c(=O)[nH]1,,9 µM
OCCN(CCO)c1nc(-c2cccs2)cc(-c2cc3ccccc3s2)n1,,100 µM
CCCc1cc(=O)oc2c3c(c4c(c12)OC(C)(C)CC4)O[C@@H](C)[C@H](C)[C@@H]3O,,10–20 µM
CCCCCCCCCCCCCCCCCCOC(=O)c1cc(O)c(O)c(O)c1,MTT,1145 µM
CCOc1cc(/C=N/NC(=O)Cn2nc(-c3ccccc3)c3c2-c2ccccc2S(=O)(=O)N3C)ccc1O,,8.7 µM
CCCCCCCC/C=C\CCCCC(CCC(=O)O)NC1c2ccc3cc4c5c6c(cc7ccc8cc9cc1c1c9c9c8c7c6c9c6c1c2c3c56)C4,trypan blue,>1300 µM
O=c1ccn([C@@H]2C[C@H](CO)C=C2F)c(=O)[nH]1,MTT,>100 µM
Cc1ccc(-c2cccc(-c3ccc(CNCCN(C)C)cc3)n2)cc1,,10 µM
CCOC(=O)c1cc(O)c(O)c(O)c1,MTT,2100 µM
C[C@H]1[C@H](O)[C@@H](C)/C=C/C=C/C=C/C=C/C=C/C=C/C=C/[C@H](O[C@@H]2O[C@H](C)[C@@H](O)[C@H](N)[C@@H]2O)C[C@@H]2O[C@](O)(C[C@@H](O)C[C@@H](O)CC[C@H](O)[C@@H](O)C[C@@H](O)CC(=O)O[C@H]1C)C[C@H](O)[C@H]2C(=O)O,MTT,>50 µM
N[C@@H](CCCCNC1c2ccc3cc4c5c6c(cc7ccc8cc9cc1c1c9c9c8c7c6c9c6c1c2c3c56)C4)C(=O)O,trypan blue,>700 µM
CN(C)CCSc1nc(-c2cccs2)cc(-c2cccs2)n1,,>100 µM
Cc1cccc(C(=O)OCc2nc3ccccc3nc2C)c1O,MTS,>100 µM
Nc1ncnc2c1ncn2[C@H]1O[C@H](CO)[C@@H](F)[C@@H]1F,,>100 µM
Cc1cc(C)c(Nc2nc(N)nc(Nc3ccc(C#N)nc3)n2)c(C)c1,MTT,48.7 µg/mL
CN(Cc1ccc(Cl)c(Cl)c1)C(=O)CCc1ccc2c(n1)NCCC2,,16 µM
O=c1[nH]cnc2c1ncn2C1OC(CO)CC1(F)F,,>100 µM
CCCC[n+]1ccc2cc(OC)c(OC)c3c2c1C=CN3,,13.7 µM
COc1ncccc1NC(=O)NCC1CCc2cccnc2N1,,50 µM
CN(C)CCNc1nc(-c2cccs2)cc(-c2cccs2)n1,,10 µM
Cc1ccc(C(=O)OCc2nc3ccccc3nc2C)cc1O,MTS,>100 µM
Nc1nc(=O)n([C@H]2O[C@@H](CO)CC2(F)F)cc1I,,>100 µM
Cc1cn([C@@H]2CC[C@H](COC(=O)CCCCCCCCCCCCC(=O)OC[C@H]3O[C@@H](n4cc(C)c(=O)[nH]c4=O)C[C@@H]3N=[N+]=[N-])O2)c(=O)[nH]c1=O,,>1 µM
CN1CCN(CCSc2nccc(-c3ccc(-c4ccnc(SCCN5CCN(C)CC5)n4)s3)n2)CC1,,100 µM
COc1cc(OC)c(C(=O)OCc2nc3ccccc3nc2C)cc1OC,MTS,>100 µM
Oc1ccc(/C=C/c2cc(O)cc(O)c2)cc1,MTT,>10 µM
CCCCCCCCCCCOC(=O)c1cc(O)c(O)c(O)c1,MTT,2048 µM
COC(=O)[C@H](C)NP(=O)(OC[C@@H]1OC[C@H](n2cc(C)c(=O)[nH]c2=O)O1)Oc1ccc(Cl)cc1Cl,MTT,>100 µM
Nc1nc2c(ncn2CC(F)(F)C(F)(F)C(F)(F)CO)c(=O)[nH]1,,>100 µM
Cc1cn([C@@H]2CC[C@H](COC(=O)CCCCCCCCCCC(=O)OC[C@H]3O[C@@H](n4cc(C)c(=O)[nH]c4=O)C[C@@H]3N=[N+]=[N-])O2)c(=O)[nH]c1=O,,>1 µM
CCCCCCCCCCCCCCCCCCOCCOP(=O)(O)OC[C@@H]1OC[C@H](n2cc(C)c(=O)[nH]c2=O)O1,MTT,15.04 µM
CCCCCCCCCCOC(=O)c1cc(O)c(O)c(O)c1,MTT,2335 µM
CCCCCCCN1C=Cc2nccc3cc(OC)c(OC)c1c23,,2.2 µM
CCCCCCCCCCCCCCCCCCOCCOP(=O)(CO[C@H](C)Cn1cnc2c(N)ncnc21)OC1CC1,luminescence,5.28 µM
Nc1ccn([C@@H]2C[C@H](CO)C=C2F)c(=O)n1,MTT,>100 µM
CN1c2c(-c3ccccc3)nn(CC(=O)N/N=C/c3ccccc3Br)c2-c2ccccc2S1(=O)=O,,>100 µM
O=c1ccn(CC(F)(F)C(F)(F)CO)c(=O)[nH]1,,>100 µM
COC(=O)c1ccc(=O)c2nc3/c(=C\O)c(O)cc(=O)c3[nH]c12,MTS,>3.6 µM
CCCCCCCCS(=O)(=O)Oc1c(OC)cc2ccnc3c2c1N(C)C=C3,,2.3 µM
CN(C(=O)NCCc1ccc2c(n1)NCCC2)c1ccccc1,,50 µM
CN1c2c(-c3ccccc3)nn(CC(=O)N/N=C/c3ccc(O)cc3O)c2-c2ccccc2S1(=O)=O,,7.8 µM
CCCCCCCCCCCCCCOC(=O)c1cc(O)c(O)c(O)c1,MTT,1800 µM
O=S(=O)(NCCc1ccc2c(n1)NCCC2)c1ccc(Cl)cc1,,50 µM
CCN(CC)C(=O)OC[C@H]1CN(C(=O)c2ccccc2)CCN1C(=O)C(=O)c1c[nH]c2nccc(OC)c12,MTT,>125 µM

7 of the rows above, restated:

SMILES	method	value
Nc1nc2c(ncn2CC(F)(F)C(F)(F)C(F)(F)CO)c(=O)[nH]1		>100 µM
O=c1[nH]cnc2c1ncn2[C@H]1C[C@@H](CO)C=C1F	MTT	>100 µM
Oc1ccc(/C=C/c2cc(O)cc(O)c2)cc1	MTT	>10 µM
CCCC[n+]1ccc2cc(OC)c(OC)c3c2c1C=CN3		13.7 µM
O=C(NCCc1ccc2c(n1)NCC(=O)O2)Nc1cccc(F)c1		50 µM
FC(F)(F)c1ccc(NC(=S)NCCC2=CCCCC2)nc1		>100 µM
Cc1cn([C@H]2C=C[C@@H](CO)O2)c(=O)[nH]c1=O	MTT	42 µM

CCn: concentration that lowers growth or viability of the cells by n%. Two numbers with a dash give a range or band. Conditions beyond the fields shown may differ between rows.